Measurements reported in PubChem BioAssay AID504761 (Drosophila RNAi Screening Center, 2011)

Assay: 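Genome-wide fly cell screen for genes dengue virus requires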 (primary screen)
System: D.Mel-2 cells from Drosophila
Knock-down reagent: long dsRNA against Drosophila genes
Challenge: infection with dengue virus type 2; dose and infection time not stated
Measurement: 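Cells stained for dengue envelope protein and imaged; percent of infected cells per well on duplicate plates, ranked by infection, with stained nuclei counted for cell number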
Direction: infection score: higher = more virus-infected cells; cell count: higher = more cells in the well
Rule for the call: 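Very low infection ranking in both replicate wells (chance probability at most 0.065), then a retest showing infection dropped 1.5-fold or more at p below 0.05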
Meaning of the calls: active = confirmed: knock-down lowers infection; inactive = not picked or not confirmed
The screen tested about 22,000 reagents; shown is an unselected part of those with a known target gene and a result. In the full data, 116 (0.52%) got an active call. 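Calls depend on retest data that are not deposited; infection was ranked per plate without normalising between plates; the unit of the infection score is not given.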 The raw values are shown without normalisation. Not all columns of the deposit are shown. The record does not give: the amount of reagent, the time to read-out.

CG2269 [DRSC06833]: infection score, replicate 1 = 6.45; cell count, replicate 1 = 6095; call = inactive
Spn53F [DRSC06022]: infection score, replicate 1 = 10; cell count, replicate 1 = 4389; call = inactive
Phae1 [DRSC02554]: infection score, replicate 1 = 5.47; cell count, replicate 1 = 6691; call = inactive
l(1)G0469 [DRSC19412]: infection score, replicate 1 = 10.1; cell count, replicate 1 = 6276; call = inactive
l(1)G0469 [DRSC19462]: cell count, replicate 1 = 368; call = inactive
CG11356 [DRSC19401]: infection score, replicate 1 = 4.44; cell count, replicate 1 = 6801; call = inactive
cathD [DRSC07588]: infection score, replicate 1 = 3.6; cell count, replicate 1 = 1860; call = inactive
Fas2 [DRSC17308]: infection score, replicate 1 = 5.95; cell count, replicate 1 = 6086; call = inactive
Fas2 [DRSC17309]: infection score, replicate 1 = 6.77; cell count, replicate 1 = 5774; call = inactive
Fas2 [DRSC18664]: infection score, replicate 1 = 4.31; cell count, replicate 1 = 6443; call = inactive
CG10920 [DRSC17765]: infection score, replicate 1 = 5.43; cell count, replicate 1 = 2008; call = inactive
CG32163 [DRSC09442]: infection score, replicate 1 = 1.01; cell count, replicate 1 = 6063; call = inactive
CG32163 [DRSC28736]: infection score, replicate 1 = 28.7; cell count, replicate 1 = 4888; call = inactive

Records listed so far whose target name starts with C or c (6):
CG2269 [DRSC06833]: infection score, replicate 1 = 6.45; cell count, replicate 1 = 6095; call = inactive
CG11356 [DRSC19401]: infection score, replicate 1 = 4.44; cell count, replicate 1 = 6801; call = inactive
cathD [DRSC07588]: infection score, replicate 1 = 3.6; cell count, replicate 1 = 1860; call = inactive
CG10920 [DRSC17765]: infection score, replicate 1 = 5.43; cell count, replicate 1 = 2008; call = inactive
CG32163 [DRSC09442]: infection score, replicate 1 = 1.01; cell count, replicate 1 = 6063; call = inactive
CG32163 [DRSC28736]: infection score, replicate 1 = 28.7; cell count, replicate 1 = 4888; call = inactive
